A mixed list of measured activities; the numbers were collected in NIAID ChemDB.

Common to all: host cell toxicity; read-out: CC50

Conditions beyond the fields shown may differ between rows. Blank or dashed fields: not listed here. CCn: concentration that lowers growth or viability of the cells by n%.

smiles	cells	method	conditions	value
Cc1cc(O)c2c(c1)C(=O)C(c1c(C)cc3c(c1O)C(=O)C=CC3=O)=CC2=O	J774A.1			26.46 µg/mL
C[C@@H]1CC[C@H]2[C@@H](C)C(=O)O[C@@H]3OC4(C)CC[C@@H]1[C@]32OO4	Noncancerous Vero cell line	neutral red		>10 µM
COc1ccc2c(c1)CCCN2CCC(=O)N1CCN(c2cccc(Cl)c2Cl)CC1	CD4+ T-cell	MTT / absorbance		104.1 µg/mL
COc1cc([C@@H]2c3cc4c(cc3[C@H](O)[C@H]3COC(=O)[C@@H]23)OCO4)cc(OC)c1OC	Jurkat cells	luminescence		0.2 µM
COC(=O)c1cc([N+](=O)[O-])c(N2CCN(C)CC2)c([N+](=O)[O-])c1	MDCK cells			157 µM
S=C(NCCC1=CCCCC1)Nc1ccc(Br)cn1	HUMAN SPERM			42 µM
CC1(C)[C@@H]2CC[C@@]1(C)[C@H](O)[C@@H]2NC(=O)/C=C/C=C/c1ccc2c(c1)OCO2	HEK293T	MTT		33.1 µM
CC(C)[C@@H]1NC(=O)[C@H](C)OC(=O)[C@@H](C(C)C)NC(=O)[C@@H](C(C)C)OC(=O)[C@H](C(C)C)NC(=O)[C@H](C)OC(=O)[C@@H](C(C)C)NC(=O)[C@@H](C(C)C)OC(=O)[C@H](C(C)C)NC(=O)[C@H](C)OC(=O)[C@@H](C(C)C)NC(=O)[C@@H](C(C)C)OC1=O	Jurkat cells	luminescence		0.2 µM
Nc1cc(Cl)nc2c1ncn2[C@@H]1O[C@H](CO)C[C@H]1O	Sheep chondrocytes G81092			>400 µM
COc1nc(N)nc2c1ncn2C=C1CC1CO	H-1			>50 µM
COc1ccc2c(c1)CCCN2CCC(=O)N1CCN(c2ccc(F)cc2)CC1	CD4+ T-cell	MTT / absorbance		85.82 µg/mL
OC[C@@H]1CC[C@H](n2cnc3c(NC4CC4)ncnc32)O1	Sheep chondrocytes G81092			280 µM
COc1c2ccoc2cc2oc(=O)ccc12	RAW 264.7			100 µg/mL
Nc1ccn([C@@H]2C[C@@H](O)[C@H](CO)O2)c(=O)n1	CV-1			>100 µM
Nc1ccn(C[C@@H](CO)OCP(=O)(O)O)c(=O)n1	BCBL-1			340 µM
OC[C@@H]1C[C@@H](O)[C@H](n2cnc3c(NC4CCCCCC4)ccnc32)O1	Sheep chondrocytes G81092	MTT		210 µM
NC(=O)c1nn(Cc2cccc(NC(=O)c3cccc([N+](=O)[O-])c3)c2)c2ccccc12	Huh7.5.1	MTT		>10 µM
CCCC[C@H](NC(=O)[C@@H](NC(=O)[C@H](Cc1cccc2ccccc12)CS(=O)(=O)C(C)(C)C)C(C)C)[C@@H](O)[C@H](O)[C@H](CCCC)NC(=O)[C@@H](NC(=O)[C@H](Cc1cccc2ccccc12)CS(=O)(=O)C(C)(C)C)C(C)C	PBLC			>0.075 µM
NC(=O)c1nn(Cc2ccccc2NC(=O)C2CC2)c2ccccc12	Huh7.5.1	MTT		>10 µM
COc1ccc2c(c1)CCCN2CCC(=O)N1CCN(c2ccc(Cl)cc2)CC1	CD4+ T-cell	MTT / absorbance		95.82 µg/mL
CCCNc1c([N+](=O)[O-])cc(C(F)(F)F)cc1[N+](=O)[O-]	MDCK cells			>80 µM
O=C(O)P(=O)(O)O	BCBL-1			≥702 µM
CCCCCCCCCc1ccc(OCCOCCOCCOCCOCCOCCOCCOCCOCCO)cc1	Human vaginal epithelial			64 µM
CCCN(CCC)c1c([N+](=O)[O-])cc(S(N)(=O)=O)cc1[N+](=O)[O-]	MDCK cells			3.9 µM
NC(=O)c1nn(Cc2cccc(NC(=O)Cc3ccccc3)c2)c2ccccc12	Huh7.5.1	MTT		>10 µM
CCC(Cl)C1(c2ccc(F)cc2)OC(=O)c2ccc(C)cc21	TZM-bl	MTT		252 µM
CC(=O)NC[C@H]1CN(c2ccc(N3CCN(c4ccc5nccn5n4)CC3)c(F)c2)C(=O)O1	THP-1	MTT		>100 µg/mL
CCC(CC)Nc1c([N+](=O)[O-])cc(S(N)(=O)=O)cc1[N+](=O)[O-]	MDCK cells			85.9 µM
CC(C)[C@H](NC(=O)OCc1cccnc1)C(=O)N[C@@H](Cc1ccccc1)[C@@H](O)[C@H](O)[C@H](Cc1ccccc1)NC(=O)[C@@H](NC(=O)OCc1cccnc1)C(C)C	PBLC			>0.253 µM
Nc1nc(N)c2ncn(C[C@@H](CO)OCP(=O)(O)O)c2n1	CBMC	MTT		33 µM
Nc1ncnc2c1ncn2CCOCP(=O)(O)O	CrFK			252 µM
Nc1ccn(C[C@H]2COP(=O)(O)CO2)c(=O)n1	HSB-2	MTT		224 µM
CONCCOc1ccc2cc1Oc1ccc(cc1)C[C@H]1c3c(cc4c(c3Oc3cc5c(cc3OC)CCN(C)[C@@H]5C2)OCO4)CCN1C	U1	MTT		1.3 µg/mL
OC[C@H]1O[C@@H](n2cnc3c(NC4CC4)nc(Cl)nc32)C[C@@H]1O	Sheep chondrocytes G81092	MTT		234 µM
Cc1cn([C@@H]2C[C@@H](O)[C@H](CO)O2)c(=O)[nH]c1=O	2.2.15			>2000 µM
C=C(COCP(=O)(O)O)Cn1cnc2c(=O)[nH]c(N)nc21	F-PBMC			262 µM
C[n+]1cc2c3c(ccc2c2ccc4cc5c(cc4c21)OCO5)OCO3	Jurkat cells	luminescence		7.3 µM
COc1ccc2cc1Oc1ccc(cc1)C[C@H]1c3c(cc4c(c3Oc3cc5c(cc3OC)CCN(C)[C@@H]5C2)OCO4)CCN1C	U1	MTT		1.3 µg/mL
C=C[C@@H](C1=CC(=O)C(OC)=C(OC)C1=O)c1ccccc1	Jurkat cells	luminescence		2.3 µM
Cc1cccc(Cn2cc(/C=N/Nc3nncs3)c3ccccc32)c1	Fibroblast L929 cell line	MTT	24 h	>100 µg/mL
Nc1nc(NC2CC2)c2ncn(C=C3CC3CO)c2n1	MEF			220 µM
CCCCCn1cc(/C=N/Nc2nncs2)c2ccccc21	Fibroblast L929 cell line	MTT	24 h	32.92 µg/mL
Nc1nc(Cl)cc2c1ncn2[C@@H]1O[C@H](CO)C[C@H]1O	Sheep chondrocytes G81092			>400 µM
CC(=O)NC[C@H]1CN(c2ccc(N3CCOCC3)c(F)c2)C(=O)O1	THP-1	MTT		>100 µg/mL
Nc1nc(Cl)nc2c1ncn2[C@H]1C[C@H](O)[C@@H](CO)O1	MDBK			<50 µM
COc1ccc(OC)c(CCNC(=S)Nc2ccc(C(F)(F)F)cn2)c1	HUMAN SPERM			276 µM
COC(=O)[C@H](C)NP(=O)(OC[C@H]1C/C1=C/n1cnc2c(OC)nc(N)nc21)Oc1ccccc1	MEF			126 µM
Nc1ncnc2c1ncn2[C@@H]1C[C@@H](O)[C@H](CO)O1	CV-1			>100 µM
CCCN(CCC)c1c([N+](=O)[O-])cc(C(F)(F)F)cc1[N+](=O)[O-]	MDCK cells			>80 µM
COc1ccc2c(c1)CCCN2CCC(=O)N1CCN(c2ccc([N+](=O)[O-])cc2)CC1	CD4+ T-cell	MTT / absorbance		>200 µg/mL
CCC(Cl)C1(c2ccc(F)cc2)OC(=O)c2ccccc21	TZM-bl	MTT		376 µM
CC(C)(C)[C@H](NC(=O)[C@H](Cc1cccc2ccccc12)CS(=O)(=O)C(C)(C)C)C(=O)N[C@@H](Cc1ccccc1)[C@@H](O)[C@H](O)[C@H](Cc1ccccc1)NC(=O)[C@@H](NC(=O)[C@H](Cc1cccc2ccccc12)CS(=O)(=O)C(C)(C)C)C(C)(C)C	PBLC			>0.015 µM
Nc1nc2c(ncn2COCCO)c(=O)[nH]1	BCBL-1			≥690 µM
COC(=O)CNC(=O)c1nn(Cc2cccc(NC(=O)c3ccc(F)cc3)c2)c2ccccc12	Huh7.5.1	MTT		>10 µM
O=C(/C=C/C=C/c1ccc2c(c1)OCO2)NC12CC3CC(CC(C3)C1)C2	HEK293T	MTT		209.3 µM
S=C(NCCc1cccs1)Nc1ccc(Br)cn1	HUMAN SPERM			>500 µM
Fc1ccc(Cn2cc(/C=N/Nc3nncs3)c3ccccc32)cc1	Fibroblast L929 cell line	MTT	24 h	>100 µg/mL
C=C[C@@H](O)C#CC#C[C@@H](O)/C=C\CCCCCCC	RAW 264.7			5 µg/mL
COc1cc(N2CCN(c3ccc(N4C[C@H](CNC(C)=O)OC4=O)cc3F)CC2)nc2nccn12	THP-1	MTT		>100 µg/mL
Nc1ncnc2c1ncn2CCOCP(=O)(O)O	CBMC	MTT		39 µM
O=C(/C=C/c1ccc(O)c(O)c1)OCCc1ccccc1	Jurkat cells	luminescence		>100 µM
OC[C@H]1O[C@@H](n2cnc3c(NC4CC4)ncnc32)[C@H](O)[C@@H]1O	MDBK			>400 µM
COc1cc2c3cc1Oc1c4c(cc5c1[C@H](Cc1ccc(cc1)Oc1cc(ccc1OCCC(=O)c1ncc[nH]1)C[C@H]3N(C)CC2)N(C)CC5)OCO4	U1	MTT		1.1 µg/mL
CCC(Br)C1(c2ccc(F)cc2)OC(=O)c2ccccc21	TZM-bl	MTT		230 µM
Fc1ccccc1CCNC(=S)Nc1ccc(C(F)(F)F)cn1	HUMAN SPERM			>500 µM
COc1ccc2c(c1)CCCN2CCC(=O)N1CCN(Cc2ccccc2)CC1	CD4+ T-cell	MTT / absorbance		94.51 µg/mL
COCCN(CCOC)c1c([N+](=O)[O-])cc(S(N)(=O)=O)cc1[N+](=O)[O-]	MDCK cells			9.7 µM
CC1C(=O)N(O)c2ncc(Br)cc2C1O	HepG2-NTCP-12	MTS	3 d	>100 µM
Nc1ncnc2c1ncn2CCOCP(=O)(O)O	BCBL-1			82 µM
COc1ccc2c(c1)CCCN2CCC(=O)N1CCN(c2ccccc2Cl)CC1	CD4+ T-cell	MTT / absorbance		112 µg/mL
O=c1ccc2cc3ccoc3cc2o1	RAW 264.7			100 µg/mL
Nc1nc2c(ncn2CCOCP(=O)(O)O)c(=O)[nH]1	HSB-2	MTT		1.7 µM
Nc1cc(Cl)nc2c1ncn2[C@H]1C[C@H](O)[C@@H](CO)O1	MDBK			105 µM
COc1nc(OC(F)(F)F)c(NC(=O)C2CCC3C4CN(C(=O)OC(C)(C)C)C5=CC(=O)CC[C@]5(C)C4CC[C@]23C)cc1Br	THP-1	ATP / luminescence		>30 µM
CCCCCCn1cc(/C=N/Nc2nncs2)c2ccccc21	Fibroblast L929 cell line	MTT	24 h	>100 µg/mL
CC(Cl)C1(c2ccc(F)cc2)OC(=O)c2ccc(Cl)cc21	TZM-bl	MTT		247 µM
O=[N+]([O-])c1cc(C(F)(F)F)cc([N+](=O)[O-])c1N1CCCCC1	MDCK cells			>80 µM
NC(=O)c1nn(Cc2cccc(NC(=O)c3ccccc3F)c2)c2ccccc12	Huh7.5.1	MTT		>10 µM
Clc1cc(NC2CCCCC2)nc(SCc2ccccc2)n1	BCBL-1			342 µM
Cc1ccnc2c1NC(=O)c1cccnc1N2C1CC1	TZM-bl	MTT		5.6 µM
COC(=O)[C@H](C)NP(=O)(OC[C@H]1C/C1=C\n1cnc2c(N)nc(N)nc21)Oc1ccccc1	H-1			>50 µM
Cc1ccc(C2(CCl)OC(=O)c3ccccc32)cc1	TZM-bl	MTT		293 µM
Nc1nccc2c1ncn2[C@@H]1C=C(CO)[C@@H](O)[C@H]1O	MA-104			400 µg/mL
CC1(C)[C@@H]2CC[C@@]1(C)[C@@H](NC(=O)/C=C/C=C/c1ccc3c(c1)OCO3)C2	HEK293T	MTT		146.5 µM
Fc1ccccc1CCNC(=S)Nc1ccc(Br)cn1	Human vaginal epithelial			>1000 µM
Nc1nccc2c1ncn2[C@@H]1C[C@H](CO)[C@@H](O)[C@H]1O	PRK			17 µg/mL